Pooled drug test results. Numbers come from NIAID ChemDB, via PubChem.

Shared fields: whole-cell or culture tests; agent: Herpes simplex virus 1; measure: EC50

Rows are shuffled and stem from different studies. ECn is the concentration giving n% inhibition of infection, replication or growth. An empty or dashed field is not shown.

smiles	strain	cell line	method	result
Cc1ccc(CON2CNc3c(ncn3[C@@H]3O[C@H](CO)[C@@H](O)[C@H]3O)C2=N)cc1	Strain HF	KB	cytopathic effect	100 µg/mL
O=c1[nH]c(=O)n([C@@H]2O[C@H](COP(=O)(O)O)[C@@H](O)[C@@H]2O)cc1/C=C/Br	VR-3	HELF	plaque count	0.013 µg/mL
CCc1c(CN[C@H]2CCCC[C@@H]2NCc2ccc[nH]2)c(CC)c(CN[C@H]2CCCC[C@@H]2NCc2ccc[nH]2)c(CC)c1CN[C@H]1CCCC[C@@H]1NCc1ccc[nH]1	KOS	Human embryonic lung fibroblasts	cytopathic effect	>0.8 µM
O=c1[nH]c(=O)n([C@@H]2O[C@H](CO)[C@@H](O)[C@@H]2O)cc1/C=C/I	CHR-3	HELF	plaque count	0.016 µg/mL
c1c[nH]c(CNCc2cc(CNCc3ccc[nH]3)cc(CNCc3ccc[nH]3)c2)c1	KOS	Human embryonic lung fibroblasts	cytopathic effect	>20 µM
Nc1ncnc2c1ncn2CCCC(O)CF	B2006 (TK-)	ESM	cytopathic effect	>400 µg/mL
O=c1c2ncn(COCCO)c2nc2[nH]c(-c3ccccc3)c(Cc3ccc(F)cc3)n12	F	HEL	cytopathic effect	>16 µg/mL
Cc1cn([C@@H]2O[C@H](CO)[C@@H](O)[C@@H]2O)c(=O)[nH]c1=O	CHR-3	HELF	plaque count	0.19 µg/mL
Nc1nc2c(ncn2CCCC(O)CF)c(=O)[nH]1	B2006 (TK-)	ESM	cytopathic effect	>400 µg/mL
C/C(=N\NC(=S)N(C)C1CC2CCC1CC2)c1ccccn1	HF	BHK-21/4	plaque count	0.49 µg/mL
CCCNCc1ccc(CNCc2c(CC)c(CNCc3ccc(CNCCC)[nH]3)c(CC)c(CNCc3ccc(CNCCC)[nH]3)c2CC)[nH]1	TK- KOS ACVr	Human embryonic lung fibroblasts	cytopathic effect	>20 µM
O=c1c2ncn(COC(CO)CO)c2nc2[nH]c(-c3ccc(F)cc3)cn12	McIntyre	HEL	cytopathic effect	0.384 µg/mL
Nc1ncnc2c1ncn2[C@@H]1O[C@H](CO)[C@@H](O)[C@@H]1O		HEP II	cytopathic effect	3.2 µg/mL
Nc1nc2c(ncn2COCCP(=O)(N2CCOCC2)N2CCOCC2)c(=O)[nH]1	L2	VERO E6	cytopathic effect	>500 µM
CCc1cc(CC)c(CNCc2ccc[nH]2)c(CC)c1	KOS	Human embryonic lung fibroblasts	cytopathic effect	>20 µM
O=C(NCc1ccc(Cl)cc1)c1cn2c3c(cc(CN4CCOCC4)cc3c1=O)OC(c1cccnc1)C2	DM2.1 (ACV-resistant)	HFF	plaque count	2.2 µM
O=c1c2ncn(COC(CO)CO)c2nc2[nH]c(-c3ccc(C(F)(F)F)cc3)cn12	TK-	HEL	cytopathic effect	>80 µg/mL
CCc1c2c(CC)c(CN[C@H]3CCCC[C@@H]3N)c(CC)c1CN[C@H]1CCCC[C@@H]1NCc1ccc([nH]1)CN[C@H]1CCCC[C@@H]1NC2	TK- KOS ACVr	Human embryonic lung fibroblasts	cytopathic effect	>20 µM
Cn1cc(C(=O)NCc2ccc(Cl)cc2)c(=O)c2cc(CN3CCOCC3)ccc21		VERO	plaque count	3.5 µM
CCc1c(CNCc2ccc[nH]2)c(CC)c(CNCc2ccc[nH]2)c(CC)c1CNCc1ccc[nH]1	KOS	Human embryonic lung fibroblasts	cytopathic effect	>0.8 µM
CCc1cn([C@H]2C[C@H](O)[C@@H](CO)O2)c(=O)[nH]c1=O	Isolate 229	BHK-21	cytopathic effect	1.37 µg/mL
CC1=C[C@H](n2cnc3c(N)ncnc32)C[C@@]1(CO)c1ccccc1		CCL-81	cytopathic effect	>56.2 µg/mL
O=c1[nH]c(=O)n([C@H]2C[C@H](O)[C@@H](CO)O2)cc1/C=C/Br	TK- KOS ACVr	Human embryonic lung fibroblasts	cytopathic effect	50 µM
O=c1c2ncn(COCCO)c2nc2[nH]c(-c3ccc(C(F)(F)F)cc3)cn12	TK-	HEL	cytopathic effect	>16 µg/mL
Nc1nc2c(ncn2COCCO)c(=O)[nH]1		Vero cells	plaque count	2.6 µg/mL
Nc1ncnc2c1ncn2[C@@H]1O[C@H](CO)[C@@H](O)[C@@H]1O	KOS-M1	VERO	plaque count	27.2 µM
C/C(=N\NC(=S)N(C)C)c1ccccn1	HF	BHK-21/4	plaque count	0.08 µg/mL
Cc1cn(CCCC(O)CF)c(=O)[nH]c1=O	B2006 (TK-)	ESM	cytopathic effect	>400 µg/mL
O=c1[nH]c(=O)n([C@@H]2O[C@H](CO)[C@@H](O)[C@@H]2O)cc1/C=C/Cl	VR-3	HELF	plaque count	0.018 µg/mL
C/C(=N\NC(=S)N(C)C1CCCCC1)c1ccccn1	HF	BHK-21/4	plaque count	0.22 µg/mL
Cn1cc(C(=O)NCc2ccc(Cl)cc2)c(=O)c2cc(CN3CCOCC3)ccc21	11893 (ACV-resistant)	HFF	plaque count	5.9 µM
CC1=C[C@H](n2ccc(N)nc2=O)C[C@@]1(CO)c1ccccc1		CCL-81	cytopathic effect	>100 µg/mL

For reference, 2 entries again:

| smiles | strain | cell line | method | result |
|---|---|---|---|---|
| CCc1cc(CC)c(CNCc2ccc[nH]2)c(CC)c1 | KOS | Human embryonic lung fibroblasts | cytopathic effect | >20 µM |
| C/C(=N\NC(=S)N(C)C1CCCCC1)c1ccccn1 | HF | BHK-21/4 | plaque count | 0.22 µg/mL |